Earlier results in patent US20040003429A1, “Pest control system” (priority 2000, published 2004).

System: adult boll weevil Anthonomus granids Boheman
Details: cited from earlier work

COP(=O)(NC(C)=O)SC (stereo not shown) [Acephate, O, S dimethyl acetylphosphoramidothicate]
metabolism of acephate to methamidophos: No metabolism
